# HIV-1 5' UTR: DMS reactivities by position

RNA: 5' end of the HIV-1 NL4-3 genome, made in vitro. Positions 1-437 read:
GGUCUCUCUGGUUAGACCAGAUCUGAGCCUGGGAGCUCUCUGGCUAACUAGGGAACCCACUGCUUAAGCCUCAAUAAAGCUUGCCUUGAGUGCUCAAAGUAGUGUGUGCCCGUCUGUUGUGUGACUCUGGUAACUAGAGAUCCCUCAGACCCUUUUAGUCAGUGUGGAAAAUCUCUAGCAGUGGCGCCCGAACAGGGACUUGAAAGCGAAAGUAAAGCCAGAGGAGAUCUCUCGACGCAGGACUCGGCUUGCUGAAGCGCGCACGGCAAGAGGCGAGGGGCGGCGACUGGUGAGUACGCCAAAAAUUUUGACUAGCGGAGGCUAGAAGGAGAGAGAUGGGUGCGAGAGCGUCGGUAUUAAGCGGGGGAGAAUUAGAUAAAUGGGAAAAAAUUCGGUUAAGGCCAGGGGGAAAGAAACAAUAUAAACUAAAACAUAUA

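Mutant RNA libraries with 1G, 2G or 3G starts, with or without cap, were folded at 37 °C for 30 min. High salt was 300 mM KCl and 5 mM MgCl2, low salt 40 mM KCl and 0.1 mM MgCl2; monomer and dimer were parted on a native gel. Each band was probed in the gel with DMS (170 mM, 15 min, 37 °C), with ethanol as control, and sequenced.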

Scale: normalised reactivity, A and C only; low values point to paired or protected bases, higher values to unpaired ones.
One numbering serves 1G, 2G and 3G.
A position is written with its base.

position	domain	1G uncapped low-salt monomer	2G capped high-salt dimer
A132	PBS	0.56	0.50
C252	SL1	0.21	0.04
C36	TAR	0.06	0.03
A235	none	0.62	0.74
A380	none	0.83	0.79
A211	PBS	0.39	0.49
A256	SL1	0.81	1.03
C187	PBS	0.05	0.03
C84	PolyA	0.52	0.66
C219	antiPAS	0.05	0.07
A242	none	0.89	1.05
C245	SL1	0.23	0.05
A429	none	0.63	0.70
A204	PBS	0.68	0.68
A149	PBS	0.11	0.07
A412	none	0.47	0.49
A424	none	0.32	0.36
A263	SL1	0.23	0.84
A327	none	0.99	1.03
A177	PBS	0.21	0.24
A379	none	0.56	0.59
C48	TAR	0.14	0.03
A390	none	0.84	0.88

Extract of 2 entries:

position,domain,1G uncapped low-salt monomer,2G capped high-salt dimer
A327,none,0.99,1.03
A390,none,0.84,0.88

The measurements come from Ye et al. 2022 (doi:10.1038/s41594-022-00746-2).